Measured values from several laboratories, pooled; numbers as filed in NIAID ChemDB.

All rows: cytotoxicity tests; cell line: MT-4; read-out: CC50

Conditions beyond the fields shown may differ between rows. CCn: concentration that lowers growth or viability of the cells by n%.

structure | value
CCCCCCOCCOCCO[C@@H]1O[C@H](COS(=O)(=O)O)[C@@H](OS(=O)(=O)O)[C@H](O[C@@H]2O[C@H](COS(=O)(=O)O)[C@@H](OS(=O)(=O)O)[C@H](O[C@@H]3O[C@H](COS(=O)(=O)O)[C@@H](OS(=O)(=O)O)[C@H](O[C@@H]4O[C@H](COS(=O)(=O)O)[C@@H](OS(=O)(=O)O)[C@H](O[C@@H]5O[C@H](COS(=O)(=O)O)[C@@H](OS(=O)(=O)O)[C@H](OS(=O)(=O)O)[C@H]5OS(=O)(=O)O)[C@H]4OS(=O)(=O)O)[C@H]3OS(=O)(=O)O)[C@H]2OS(=O)(=O)O)[C@H]1OS(=O)(=O)O | >1000 µg/mL
CC[C@@H](NS(=O)(=O)c1ccc(Cl)cc1)c1n[nH]c(=S)o1 | 125 µg/mL
C=C(C)[C@@H]1CC[C@]2(C(=O)On3nnc4ccccc43)CC[C@]3(C)[C@H](CC[C@@H]4[C@@]5(C)CC[C@H](OC(=O)C(C)(C)CC(=O)O)C(C)(C)[C@@H]5CC[C@]43C)[C@@H]12 | 2.5 µM
CCOC(=O)c1cccn1S(=O)(=O)c1cccc(NC(C)=O)c1 | >200 µM
CCCc1c(Cc2ccc3ccccc3c2)n(COC)c(=O)[nH]c1=O | 71.7 µM
C=C(C)[C@@H]1CC[C@]2(C(=O)O)CC[C@]3(C)[C@H](CC[C@@H]4[C@@]5(C)CC[C@H](OC(=O)CCCC(=O)OC[C@H]6OC(n7cc(C)c(=O)[nH]c7=O)C[C@@H]6N=[N+]=[N-])C(C)(C)[C@@H]5CC[C@]43C)[C@@H]12 | 17 µM
O=C(Nc1ccc(S(=O)(=O)Nc2ccccc2Br)cc1)c1cc(O)c(O)c(O)c1 | >25 µM
CC1CCC(O[C@@H]2O[C@H](COS(=O)(=O)O)[C@@H](OS(=O)(=O)O)[C@H](O[C@@H]3O[C@H](COS(=O)(=O)O)[C@@H](OS(=O)(=O)O)[C@H](O[C@@H]4O[C@H](COS(=O)(=O)O)[C@@H](OS(=O)(=O)O)[C@H](O[C@@H]5O[C@H](COS(=O)(=O)O)[C@@H](OS(=O)(=O)O)[C@H](O[C@@H]6O[C@H](COS(=O)(=O)O)[C@@H](OS(=O)(=O)O)[C@H](OS(=O)(=O)O)[C@H]6OS(=O)(=O)O)[C@H]5OS(=O)(=O)O)[C@H]4OS(=O)(=O)O)[C@H]3OS(=O)(=O)O)[C@H]2OS(=O)(=O)O)CC1 | >1000 µg/mL
COc1c(Cl)cc(C(=CCN[C@H]2CC[C@@]3(C)[C@@H](CC[C@@H]4[C@@H]3CC[C@]3(C)[C@@H]([C@H](C)CCCC(C)C)CC[C@@H]43)C2)c2cc(Cl)c(OC)c(C(=O)O)c2)cc1C(=O)O | >150 µM
CCOC(=O)c1cccn1S(=O)(=O)c1ccc(N)cc1 | >200 µM
O=C(/C=C/c1ccc(O)c(O)c1)Nc1ccc(S(=O)(=O)Nc2ccccc2Br)cc1 | 49 µM
Cc1cc(C)nc(N2C(=O)CSC2c2c(F)cccc2F)c1 | 64.1 µM
N#C/C(=C/c1ccccc1Br)n1nnc2ccccc21 | 2 µM
COC(=O)Cn1c(=O)c(C)cn([C@@H]2O[C@H](CO[Si](C)(C)C(C)(C)C)[C@@H](O)[C@H]2O[Si](C)(C)C(C)(C)C)c1=O | 11 µM
CSCC[C@H](NS(=O)(=O)c1ccc(C)cc1)c1n[nH]c(=S)o1 | 71 µg/mL
COc1cccc(OC)c1C1SCC(=O)N1c1nccc(C)n1 | 231.2 µM
COc1ccc(S(=O)(=O)NCCCc2n[nH]c(=S)o2)cc1 | 110 µg/mL
CCCCCCCCCCCCOC1OC(COS(=O)(=O)O)C(OS(=O)(=O)O)C(OC2OC(COS(=O)(=O)O)C(OS(=O)(=O)O)C(OC3OC(COS(=O)(=O)O)C(OS(=O)(=O)O)C(OC4OC(COS(=O)(=O)O)C(OS(=O)(=O)O)C(OC5OC(COS(=O)(=O)O)C(OS(=O)(=O)O)C(OS(=O)(=O)O)C5OS(=O)(=O)O)C4OS(=O)(=O)O)C3OS(=O)(=O)O)C2OS(=O)(=O)O)C1OS(=O)(=O)O | >1000 µg/mL
COc1c(Cl)cc(C(=CCN[C@@H]2CC[C@@]3(C)[C@@H](CC[C@@H]4[C@@H]3CC[C@]3(C)[C@@H]([C@H](C)CCCC(C)C)CC[C@@H]43)C2)c2cc(Cl)c(OC)c(C(=O)O)c2)cc1C(=O)O | 87 µM
COC(=O)CCCCn1c(=O)c(C)cn([C@@H]2O[C@H](CO[Si](C)(C)C(C)(C)C)[C@@H](O)[C@H]2O[Si](C)(C)C(C)(C)C)c1=O | 18 µM
CCc1c(Cc2cccc3ccccc23)n(COCc2ccccc2)c(=O)[nH]c1=O | 32.56 µM
COc1ccc(/C=C(/C#N)n2nc3ccccc3n2)cc1OC | >100 µM
O=C(/C=C/c1ccc(O)c(O)c1)Nc1ccc(S(=O)(=O)Nc2ccc(Br)cc2)cc1 | 15 µM
CCOCn1c(Cc2ccc3ccccc3c2)c(C)c(=O)[nH]c1=O | 158 µM
N#C/C(=C\c1ccccc1C(F)(F)F)n1nnc2ccccc21 | 5 µM
CC(=O)Oc1ccc(/C=C/C(=O)Nc2ccc(S(=O)(=O)Nc3ccc(F)c(F)c3)cc2)cc1OC(C)=O | 20 µM
CCNC(=O)c1c(O)c2ncc(Cc3ccc(F)cc3)cc2n(C)c1=O | >50 µM
C=C(C)[C@@H]1CC[C@]2(C(=O)O)CC[C@]3(C)[C@H](CC[C@@H]4[C@@]5(C)CC[C@H](OC(=O)CC(C)(C)C(=O)O)C(C)(C)[C@@H]5CC[C@]43C)[C@@H]12 | 7.5 µM
COc1cccc(OC)c1C1SCC(=O)N1c1cccc(C)n1 | 241.5 µM
CCN1C(=O)c2cccn2S(=O)(=O)c2cc(Cl)ccc21 | >200 µM
CC(C)CCC[C@@H](C)[C@H]1CC[C@H]2[C@@H]3CC[C@H]4C[C@H](NC(=O)C=C(c5cc(Cl)c(O)c(C(=O)O)c5)c5cc(Cl)c(O)c(C(=O)O)c5)CC[C@]4(C)[C@H]3CC[C@]12C | 24.4 µM
Cc1cc(C)nc(N2C(=O)CSC2c2c(C(F)(F)F)ccc(Cl)c2F)c1 | 163 µM
CC(C)[C@@H]1CC[C@@H](C)C[C@H]1O[C@@H]1O[C@H](COS(=O)(=O)O)[C@@H](OS(=O)(=O)O)[C@H](O[C@@H]2O[C@H](COS(=O)(=O)O)[C@@H](OS(=O)(=O)O)[C@H](O[C@@H]3O[C@H](COS(=O)(=O)O)[C@@H](OS(=O)(=O)O)[C@H](O[C@@H]4O[C@H](COS(=O)(=O)O)[C@@H](OS(=O)(=O)O)[C@H](O[C@@H]5O[C@H](COS(=O)(=O)O)[C@@H](OS(=O)(=O)O)[C@H](OS(=O)(=O)O)[C@H]5OS(=O)(=O)O)[C@H]4OS(=O)(=O)O)[C@H]3OS(=O)(=O)O)[C@H]2OS(=O)(=O)O)[C@H]1OS(=O)(=O)O | >1000 µg/mL
CNOC(=O)Cn1c(=O)c(C)cn([C@@H]2O[C@H](CO[Si](C)(C)C(C)(C)C)[C@@H](O[Si](C)(C)C(C)(C)C)[C@H]2O)c1=O | 4.2 µM
CC(C)c1c(Cc2cccc3ccccc23)n(COCCO)c(=O)[nH]c1=O | 53.2 µM
Cc1cn([C@@H]2O[C@H](COC(=O)C(C)(C)C)[C@@H](O)[C@H]2OC(=O)C(C)(C)C)c(=O)n(CC(=O)O)c1=O | 168 µM
CCOC(=O)c1cccn1S(=O)(=O)c1cc(Cl)ccc1NC(=O)CN1CCCC1 | 111 µM
Cc1cccc(N2C(=O)CSC2c2c(F)cccc2F)c1 | 207.8 µM
Cc1cn([C@@H]2O[C@H](CO)C3(OS(=O)(=O)C=C3N)[C@H]2O)c(=O)[nH]c1=O | >100 µg/mL
C=C(C)[C@@H]1CC[C@]2(C(=O)OC[C@@H]3OC(n4ccc(N(C(=O)OCC)C(=O)OCC)nc4=O)CS3)CC[C@]3(C)[C@H](CC[C@@H]4[C@@]5(C)CC[C@H](O)C(C)(C)[C@@H]5CC[C@]43C)[C@@H]12 | >50 µM
CC[C@@H](NS(=O)(=O)c1ccc(OC)cc1)c1n[nH]c(=S)o1 | 125 µg/mL
CC(C)CCC[C@@H](C)[C@H]1CC[C@H]2[C@@H]3CC[C@H]4C[C@@H](NC(=O)C=C(c5cc(Cl)c(O)c(C(=O)O)c5)c5cc(Cl)c(O)c(C(=O)O)c5)CC[C@]4(C)[C@H]3CC[C@]12C | 52.2 µM
CC(CO[C@@H]1O[C@H](COS(=O)(=O)O)[C@@H](OS(=O)(=O)O)[C@H](O[C@@H]2O[C@H](COS(=O)(=O)O)[C@@H](OS(=O)(=O)O)[C@H](O[C@@H]3O[C@H](COS(=O)(=O)O)[C@@H](OS(=O)(=O)O)[C@H](O[C@@H]4O[C@H](COS(=O)(=O)O)[C@@H](OS(=O)(=O)O)[C@H](O[C@@H]5O[C@H](COS(=O)(=O)O)[C@@H](OS(=O)(=O)O)[C@H](OS(=O)(=O)O)[C@H]5OS(=O)(=O)O)[C@H]4OS(=O)(=O)O)[C@H]3OS(=O)(=O)O)[C@H]2OS(=O)(=O)O)[C@H]1OS(=O)(=O)O)CC(C)(C)C | >1000 µg/mL
CCc1c(Cc2ccc3ccccc3c2)n(COCc2ccccc2)c(=O)[nH]c1=O | 34.16 µM
C=C(C)[C@@H]1CC[C@]2(C(=O)NCCCCCCCC(=O)N[C@@H](CC(C)C)[C@@H](O)CC(=O)O)CC[C@]3(C)[C@H](CC[C@@H]4[C@@]5(C)CC[C@H](O)C(C)(C)[C@@H]5CC[C@]43C)[C@@H]12 | >10 µM
N#C/C(=C\c1ccc(Cl)cc1Cl)n1nnc2ccccc21 | 6 µM
Cc1ccnc(N2C(=O)CSC2c2c(F)cccc2F)n1 | >406.7 µM
C=C(C)[C@@H]1CC[C@]2(C(=O)NCCCCCCNC(C)=O)CC[C@]3(C)[C@H](CC[C@@H]4[C@@]5(C)CC[C@H](OC(=O)CC(C)(C)C(=O)O)C(C)(C)[C@@H]5CC[C@]43C)[C@@H]12 | 7.5 µM
N#C/C(=C\c1cccs1)n1nc2ccccc2n1 | >100 µM
CCCCO[C@@H]1O[C@H](COS(=O)(=O)O)[C@@H](OS(=O)(=O)O)[C@H](O[C@@H]2O[C@H](COS(=O)(=O)O)[C@@H](OS(=O)(=O)O)[C@H](O[C@@H]3O[C@H](COS(=O)(=O)O)[C@@H](OS(=O)(=O)O)[C@H](O[C@@H]4O[C@H](COS(=O)(=O)O)[C@@H](OS(=O)(=O)O)[C@H](OS(=O)(=O)O)[C@H]4OS(=O)(=O)O)[C@H]3OS(=O)(=O)O)[C@H]2OS(=O)(=O)O)[C@H]1OS(=O)(=O)O | >1000 µg/mL
CCCCC(=O)Nc1ccc(Cl)cc1S(=O)(=O)n1cccc1C(=O)OCC | >200 µM

The last 6 rows once more:

structure | value
N#C/C(=C\c1ccc(Cl)cc1Cl)n1nnc2ccccc21 | 6 µM
Cc1ccnc(N2C(=O)CSC2c2c(F)cccc2F)n1 | >406.7 µM
C=C(C)[C@@H]1CC[C@]2(C(=O)NCCCCCCNC(C)=O)CC[C@]3(C)[C@H](CC[C@@H]4[C@@]5(C)CC[C@H](OC(=O)CC(C)(C)C(=O)O)C(C)(C)[C@@H]5CC[C@]43C)[C@@H]12 | 7.5 µM
N#C/C(=C\c1cccs1)n1nc2ccccc2n1 | >100 µM
CCCCO[C@@H]1O[C@H](COS(=O)(=O)O)[C@@H](OS(=O)(=O)O)[C@H](O[C@@H]2O[C@H](COS(=O)(=O)O)[C@@H](OS(=O)(=O)O)[C@H](O[C@@H]3O[C@H](COS(=O)(=O)O)[C@@H](OS(=O)(=O)O)[C@H](O[C@@H]4O[C@H](COS(=O)(=O)O)[C@@H](OS(=O)(=O)O)[C@H](OS(=O)(=O)O)[C@H]4OS(=O)(=O)O)[C@H]3OS(=O)(=O)O)[C@H]2OS(=O)(=O)O)[C@H]1OS(=O)(=O)O | >1000 µg/mL
CCCCC(=O)Nc1ccc(Cl)cc1S(=O)(=O)n1cccc1C(=O)OCC | >200 µM